{"source": "patent US20190275027A1", "about": "(priority 2018, published 2019)", "key": {"MARV": {"tested_on": "MARV", "experiment": "MARV antiviral activity (Tables 1-3)", "type": "cell-based, Marburg virus", "conditions": "read-out: MARV IC50"}, "[1]": {"tested_on": "wild type Ebola virus, Mayinga strain"}}, "note": "pIC50: −log10 of the molar value. Values joined by “and” are separate entries in the source; they are usually repeats but may differ in a detail not shown here. Identical values can stand only once. Like-named read-outs stand apart in the source and are kept apart here."}
{"smiles": "COc1ccc2c(c1)CCN(C)[C@@H]2Cc1cccc(Oc2cc(C[C@@H]3c4cc(OC)c(OC)cc4CCN3C)ccc2OC)c1", "values": [{"measurement": "pIC50", "setting": "MARV", "result": 6.55}, {"measurement": "pIC50", "setting": "[1]", "result": 5.96}]}
{"smiles": "COc1ccc2c(c1)CCN(C)[C@@H]2Cc1ccc(Oc2cc(C[C@@H]3c4ccc(OC)cc4CCN3C)ccc2OC)cc1", "values": [{"measurement": "pIC50", "setting": "MARV", "result": 6.25}, {"measurement": "pIC50", "setting": "[1]", "result": 5.91}]}
{"smiles": "COc1ccc2c(c1)CCN(C)[C@@H]2Cc1ccc(Oc2cccc(C[C@@H]3c4cc5c(cc4CCN3C)OCO5)c2)cc1", "values": [{"measurement": "pIC50", "setting": "MARV", "result": 6.28}, {"measurement": "pIC50", "setting": "MARV; listed as B3-34^SS", "result": 6.05}, {"measurement": "pIC50", "setting": "[1]", "result": "6.05 and 6.00"}]}
{"smiles": "COc1ccc2c(c1)CCN(C)[C@@H]2Cc1ccc(OC)c(Oc2ccc(C[C@@H]3c4cc(OC)c(OC)cc4CCN3C)cc2)c1", "values": [{"measurement": "pIC50", "setting": "MARV", "result": 6.76}, {"measurement": "pIC50", "setting": "[1]", "result": 6.70}]}
{"smiles": "COc1ccc2c(c1)CCN(C)[C@@H]2Cc1ccc(Oc2ccc(C[C@@H]3c4cc(OC)c(OC)cc4CCN3C)cc2OC)cc1", "values": [{"measurement": "pIC50", "setting": "MARV", "result": 7.08}, {"measurement": "pIC50", "setting": "[1]", "result": 6.90}]}
